# According to PubChem BioAssay:
# By UniProt entry, the sequences of proteins in these tests, tags left out. Where a name states a change or a piece, a line headed by the entry shows the natural chain unless it says otherwise.
# UniProt P60615, whole entry, looked up: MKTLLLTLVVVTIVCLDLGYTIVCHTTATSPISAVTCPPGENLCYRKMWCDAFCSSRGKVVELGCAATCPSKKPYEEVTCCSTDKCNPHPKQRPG
# UniProt Q08210: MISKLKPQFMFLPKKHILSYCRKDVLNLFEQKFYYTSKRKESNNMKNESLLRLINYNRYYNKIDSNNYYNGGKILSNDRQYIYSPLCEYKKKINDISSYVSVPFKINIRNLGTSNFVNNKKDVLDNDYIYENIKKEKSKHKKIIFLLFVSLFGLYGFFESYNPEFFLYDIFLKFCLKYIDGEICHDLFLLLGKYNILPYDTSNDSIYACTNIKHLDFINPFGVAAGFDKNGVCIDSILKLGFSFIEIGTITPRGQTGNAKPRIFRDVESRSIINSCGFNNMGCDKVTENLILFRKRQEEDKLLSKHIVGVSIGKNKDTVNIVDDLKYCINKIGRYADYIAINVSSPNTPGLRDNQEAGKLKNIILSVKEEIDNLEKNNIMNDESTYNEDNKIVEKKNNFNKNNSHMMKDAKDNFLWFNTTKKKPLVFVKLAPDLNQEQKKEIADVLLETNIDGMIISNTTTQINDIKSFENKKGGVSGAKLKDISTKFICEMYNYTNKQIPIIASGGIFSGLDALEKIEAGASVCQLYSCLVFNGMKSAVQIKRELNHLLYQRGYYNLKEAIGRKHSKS
# Only a part is listed here, and it is no random draw. The list shows a part of the results. Activity calls are given as the source filed them.
# Legend:
# [1] = E. coli growth modulation, two-sided OD650, primary screen, E. coli filamentation project, strain DRC41, 24 h (AID 1093); conditions: OD650, 24 h, higher = more signal, called active from +8 up or from −8 down;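 also: MC1000 strain lacking acrAB efflux and sulA so SOS filamentation is blocked; test concentration not given here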
# [2] = tested on: Plasmodium falciparum Sir2 (PF13_0152, Sir2A); assay: pfSir2 binders on small-molecule microarrays, primary screen, biochemical, small-molecule microarray, 635 nm fluorescence (AID 1098); conditions: small-molecule microarray binding, fluorescence 635 nm; higher = more signal;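 also: score merges spot fluorescence intensity with its signal-to-noise ratio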
# [3] = tested on: Human papillomavirus type 1a protein E7 (residues 44-93); assay: HPV1a E7 fragment binders on microarrays, primary screen, biochemical, small-molecule microarray, residues 44-93, 635 nm fluorescence (AID 1108); conditions: small-molecule microarray binding, fluorescence 635 nm; higher = more signal;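 also: E7 fragment applied at 1 µg/mL in TBST for 1 h at 4 C; score combines spot fluorescence with its signal to noise ratio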
# [4] = target: Alpha-bungarotoxin (Bungarus multicinctus) (UniProt P60615); assay: alpha-bungarotoxin binders on microarray, profiling panel, artefact control for SMM control protein annotation, biochemical, small-molecule microarray, Alexa647 label, 635/667 nm fluorescence (AID 1117); conditions: alpha-BTX-A647 binding fluorescence, higher = more signal
# [5] = tested on: Human papillomavirus type 1a E7 protein (residues 1-88); assay: HPV1a E7 small-molecule binders, primary screen, biochemical, small-molecule microarray, residues 1-88, 635 nm (AID 1129); conditions: small-molecule microarray binding, fluorescence 635 nm; higher = more signal
# [6] = E. coli DRC41 culture turbidity changes, primary screen, E. coli filamentation inducer project, strain DRC41, OD650, 48 h (AID 1152);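 also: E. coli MC1000 strain DRC41 lacking acrAB efflux pump and sulA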; conditions: E. coli DRC41 (acrAB sulA), higher = more signal, called active from +8 up or from −8 down
# [7] = target: Dihydroorotate dehydrogenase (quinone), mitochondrial (Plasmodium falciparum (isolate 3D7)) (UniProt Q08210); assay: PfDHODH enzyme inhibitors, primary screen, biochemical, C-terminal His tag, absorbance 600 nm (AID 1175); conditions: DCIP absorbance 600 nm, higher = more signal, called active from +8 up or from −8 down;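 also: recombinant parasite enzyme with a five histidine tag at its C terminus; test concentration not given here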
# [8] = E. coli acrAB mutant growth effects, primary screen, E. coli filamentation inducers, strain DRC39, OD650, 24 h (AID 1178); conditions: higher = more signal, called active from +8 up or from −8 down;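 also: growth measured as culture turbidity by optical density at 650 nm; test concentration not given here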
# [9] = E. coli acrAB mutant growth effects, primary screen, E. coli filamentation inducers, strain DRC39, OD650, 48 h (AID 1179);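 also: screen aims at cell division blockers that make cells filament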; conditions: E. coli DRC39 delta-acrAB growth, higher = more signal, called active from +8 up or from −8 down
# [10] = Plasmodium falciparum growth inhibition, primary screen, strain 3D7, DAPI fluorescence, 100 nL (AID 1184);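 also: parasites grown inside human red blood cells in medium with human serum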; conditions: P. falciparum 3D7 growth, 3 d, higher = more signal
SMILES,z-score [1],composite z-score [2],composite z-score [3],composite z-score [4],composite z-score [5],z-score [6],composite z-score [7],z-score [8],z-score [9],z-score [10]
COP(=O)(/N=C1/CC(CCCO)=CC(C2CC2)N1C)OC (stereo not given),inactive: 1.02,0.859,0.345,0.654,0.358,inactive: 1.44,inactive: -4.87,inactive: 0.362,inactive: 0.283,0.101
COP(=O)(/N=C1/CC(c2ccc(CO)cc2)=CC(c2cccs2)N1C)OC (stereo not given),inactive: 0.639,-0.0312,0.17,0.675,-0.0043,inactive: 0.852,inactive: -6.35,inactive: 0.629,inactive: 0.556,-2.03
O=P(/N=C1/CC(c2ccc(CO)cc2)=CC(C2CC2)N1Cc1sc2ccccc2c1Cl)(Oc1ccccc1)Oc1ccccc1 (stereo not given),inactive: -0.708,1.19,1.42,1.82,1.23,inactive: -1.75,inactive: -0.493,inactive: -1.96,inactive: -0.954,-3.15
COP(=O)(/N=C1/CC(CCCO)=CC(C2CC2)N1Cc1cc2c(cc1Br)OCO2)OC (stereo not given),inactive: 0.435,0.399,0.23,0.785,0.702,inactive: 0.766,inactive: -2.53,inactive: 1.53,inactive: 1.37,-1.85
COP(=O)(/N=C1/CC(CCCO)=CC(C2CC2)N1Cc1cccc(OC(F)(F)F)c1)OC (stereo not given),inactive: 0.371,-0.111,-0.0615,0.287,-0.227,inactive: 0.59,inactive: -5.32,inactive: 1.21,inactive: 0.832,-2.42
O=P(/N=C1/CC(CCCO)=CC(c2cccs2)N1Cc1cccc(OC(F)(F)F)c1)(Oc1ccccc1)Oc1ccccc1 (stereo not given),inactive: -0.199,0.993,1.2,1.49,1.1,inactive: -0.0788,inactive: -3.82,inactive: 1.29,inactive: 0.309,-1.4
COP(=O)(/N=C1/CC(CCCO)=CC(c2ccc(CN3CCCC3)cc2)N1Cc1sc2ccccc2c1Cl)OC (stereo not given),inactive: 0.0218,1.35,0.0634,0.404,0.008,inactive: -0.0949,active: -18.6,inactive: 1.54,inactive: 1.04,-2.9
CN1/C(=N\P(=O)(Oc2ccccc2)Oc2ccccc2)CC(c2ccc(CO)cc2)=CC1c1cccs1 (stereo not given),inactive: -0.0869,0.684,-0.717,1.09,-0.538,inactive: 2.08,inactive: 0.137,inactive: 1.1,inactive: 0.333,-1.42
COP(=O)(/N=C1/CC(CCCO)=CC(c2ccc(CN3CCCC3)cc2)N1Cc1cccc(OC(F)(F)F)c1)OC (stereo not given),inactive: 0.454,1.13,0.297,1.51,0.473,inactive: 0.457,inactive: -6.13,inactive: 0.822,inactive: 0.427,-2.92
O=P(/N=C1/CC(CCCO)=CC(c2cccs2)N1Cc1cc2c(cc1Br)OCO2)(Oc1ccccc1)Oc1ccccc1 (stereo not given),inactive: -1.08,1.58,1.33,1.27,1.22,inactive: -1.17,active: -9.66,inactive: -0.264,inactive: -0.504,-1.12
COP(=O)(/N=C1/CC(CCCO)=CC(c2ccc(CN3CCCC3)cc2)N1C)OC (stereo not given),inactive: 0.975,-0.333,-0.153,0.259,0.353,inactive: 1.53,inactive: -5.91,inactive: 0.703,inactive: 0.544,-0.0354
CN1/C(=N\P(=O)(Oc2ccccc2)Oc2ccccc2)CC(CCCO)=CC1c1cccs1 (stereo not given),inactive: 0.514,0.639,0.557,0.922,0.377,inactive: -0.0231,inactive: -0.173,inactive: -0.775,inactive: -0.488,-1.72
O=P(/N=C1/CC(CCCO)=CC(c2ccc(CN3CCCC3)cc2)N1Cc1sc2ccccc2c1Cl)(Oc1ccccc1)Oc1ccccc1 (stereo not given),inactive: -0.269,-0.178,0.351,1.08,0.494,inactive: -0.785,inactive: -0.241,inactive: -0.0581,inactive: -0.0524,-3.08
COP(=O)(/N=C1/CC(CCCO)=CC(c2cccs2)N1C)OC (stereo not given),inactive: 1.32,1.03,0.203,1.81,0.643,inactive: 1.71,active: -19.2,inactive: 2.26,inactive: 1.58,-1.88
O=P(/N=C1/CC(CCCO)=CC(C2CC2)N1Cc1cccc(OC(F)(F)F)c1)(Oc1ccccc1)Oc1ccccc1 (stereo not given),inactive: 0.512,0.0453,0.999,-0.219,0.625,inactive: 0.175,inactive: -0.0265,inactive: 0.342,inactive: 0.287,-2.72
